Results of unrelated studies side by side (data: NIAID ChemDB).

Shared fields: tests in culture; organism: HIV-1

Blank or dashed fields: not listed here. Neighbouring rows are from separate reports. ECn: concentration that inhibits the pathogen or its effect by n%.

smiles | cell line | mutations | conditions | strain | read by | read-out | result
CCCCCCCC/C=C\CCCCCCCC(=O)OCC(COC(=O)CCCCCCC/C=C\CCCCCCCC)OC(=O)CCC(=O)O[C@H](CN1C[C@H]2CCCC[C@H]2C[C@H]1C(=O)NC(C)(C)C)[C@H](Cc1ccccc1)NC(=O)[C@H](CC(N)=O)NC(=O)c1ccc2ccccc2n1 | MT-4 |  |  | IIIB | cytopathic effect / MTT | EC50 | 1.7 µM
CC(C)(C)NC(=O)[C@@H]1CN(S(C)(=O)=O)CCN1C[C@@H](O)C[C@@H](Cc1ccccc1)C(=O)N[C@H]1c2ccccc2C[C@H]1O | MT-4 |  |  | IIIB | p24 | EC50 | <0.4 µM
Cc1cn([C@H]2C[C@H](N=[N+]=[N-])[C@@H](CO)O2)c(=O)[nH]c1=O | CEM + CEM-SS |  |  | A17 | cytopathic effect / XTT | EC50 | 0.14 µM
COc1cc2c(c(OC)c1O)-c1ccc(SC)c(=O)cc1[C@@H](N)CC2 | H9 |  |  | IIIB | p24 | EC50 | 1.1 µM
CC(C)Nc1cccnc1N1CCN(C(=O)c2cc3ccccc3[nH]2)CC1 | CEM |  |  | IIIB | syncytia | EC50 | 0.08 µM
CC(C)(C)NC(=O)[C@@H]1CCCN1C(=O)[C@@H](O)[C@H](Cc1ccccc1)NC(=O)[C@H](CC(N)=O)NC(=O)c1ccc2ccccc2n1 | ATH8 |  |  | LAI | trypan blue | EC50 | 1 µM
Cc1nc2ccccc2c(-c2ccc3c4c(ccnc24)[C@H]2C[C@@H]32)c1[C@H](OC(C)(C)C)C(=O)O | MT-4 |  |  | IIIB | ATP | EC50 | 0.037 µM
Cc1cn([C@H]2C[C@H](N=[N+]=[N-])[C@@H](CO)O2)c(=O)[nH]c1=O | PBMC |  |  | BAL R5 | p24 | EC50 | <10 µM
Cc1cc(C)c(Oc2ncc(N)c(Nc3ccc(C#N)cc3)n2)c(C)c1 | MT-4 |  |  | IIIB | MTT | EC50 | 0.0072 µM
Cc1cn([C@H]2C[C@H](N=[N+]=[N-])[C@@H](CO)O2)c(=O)[nH]c1=O | MT-2 |  |  | LAI | p24 | EC50 | 0.003 µM
Nc1nc(N)c2ncn([C@H]3CC[C@@H](CO)O3)c2n1 |  |  |  |  |  | EC90 | 29 µM
CO[C@H]1CC[C@H](C)N2C[C@H]1n1cc(C(=O)NCc3c(F)cc(F)cc3F)c(=O)c(O)c1C2O | MT-4 |  |  | IIIB | luminescence | EC50 | 0.0015 µM
CSC[C@H](NC(=O)COc1cccc2ccccc12)C(=O)N[C@@H](Cc1ccccc1)[C@H](O)C(=O)N1CSC(C)(C)[C@H]1C(=O)NC(C)(C)C | ATH8 |  |  | LAI | trypan blue | EC50 | 0.2 µM
Nc1ccn([C@H]2CC[C@@H](CO)O2)c(=O)n1 | MT-2 |  |  | HXB2D | XTT | EC50 | 0.6 µM
Cc1ccnc2c1NC(=O)c1cccnc1N2C1CC1 | CEM | RT-E138K |  | IIIB | syncytia | EC50 | 0.08 µM
CNC1=CC(=O)C(C[C@]2(C)C(C)CCC3(C)C(C)=CCCC32)=CC1=O | C8166 |  |  | IIIB | syncytia | EC90 | >16.2 µM
CC(=O)Nc1cnc(Oc2c(Br)cc(Br)cc2Br)nc1Nc1ccc(C#N)cc1 | MT-4 |  |  | IIIB | MTT | EC50 | 19.6 µM
CC1(C)CC[C@]2(C(=O)O)CC[C@]3(C)C(=CC[C@@H]4[C@@]5(C)CC[C@H](O[C@@H]6O[C@H](CO)[C@H](O[C@@H]7O[C@H](OO)[C@H](O)[C@H](O)[C@H]7O)[C@H](O)[C@H]6O)C(C)(C)[C@@H]5CC[C@]43C)[C@@H]2C1 | PBMC |  |  | BaL | p24 / ELISA | EC50 | 1.96 µg/mL
CC1=CCCC2C1(C)CCC(C)[C@@]2(C)CC1=CC(=O)C(NC(CS(=O)(=O)O)C(=O)O)=CC1=O | C8166 |  |  | IIIB | syncytia | EC90 | 1 µM
O=c1c(O)c(-c2ccc(O)c(O)c2)oc2cc(OC3OC(CO)C(O)C(O)C3O)cc(O)c12 | C8166 |  |  | MN | ELISA | EC50 | >250 µg/mL
Nc1cccc2c1ncn2[C@@H]1O[C@H](CO)[C@@H](O)[C@@H]1O | MT-4 |  |  | IIIB | cytopathic effect / MTT | EC50 | >125 µg/mL
O=c1[nH]cnc2c1ncn2[C@H]1CC[C@@H](CO)O1 | MT-4 |  |  | IIIB |  | EC50 | 4.95 µg/mL
O=C(O)C1(O)C[C@@H](O)C(O)[C@H](O)C1 | C8166 |  |  | MN | ELISA | EC50 | >200 µg/mL
CSC[C@H](NC(=O)COc1cccc2cnccc12)C(=O)N[C@@H](Cc1ccccc1)[C@H](O)C(=O)N1CSC(C)(C)[C@H]1C(=O)NC(C)(C)C | ATH8 |  |  | LAI | trypan blue | EC50 | 0.1 µM
CC(C)(C)NC(=O)[C@@H]1C[C@@H]2CCCC[C@@H]2CN1C[C@@H](O)[C@H](Cc1ccccc1)NC(=O)[C@H](CC(N)=O)NC(=O)c1ccc2ccccc2n1 | C8166 |  |  | MN | ELISA | EC50 | <0.001 µg/mL
O=c1cc(-c2ccc(O)cc2)oc2cc(O)cc(O)c12 | MT-4 |  |  | NL4-3 | p24 / ELISA | EC50 | 12.8 µg/mL
CC(C)(C)NC(=O)[C@@H]1C[C@@H]2CCCC[C@@H]2CN1C[C@@H](OC(=O)[C@H](Cc1ccccc1)NC(=O)OC(C)(C)C)[C@H](Cc1ccccc1)NC(=O)[C@H](CC(N)=O)NC(=O)c1ccc2ccccc2n1 | CEM |  |  | LAI | RT activity | EC50 | 0.028 µM
Cc1cn([C@H]2C[C@H](N=[N+]=[N-])[C@@H](CO)O2)c(=O)[nH]c1=O | C8166 |  |  | IIIB | p24 | EC50 | <0.04 µg/mL
Nc1ncnc2c1ncn2[C@H]1C=C[C@@](CO)(CCP(=O)(O)O)C1 | CEM |  |  |  |  | EC50 | 8.61 µM
O=C(O)[C@H]1O[C@@H](Oc2cc3oc(-c4ccccc4)cc(=O)c3c(O)c2O)[C@H](O)[C@@H](O)[C@@H]1O | PBMC |  |  |  | p24 | EC50 | 32 µM
CCOCn1c(Sc2ccccc2)c(CC)c(=O)[nH]c1=O | CEM |  |  | IIIB | syncytia | EC50 | 0.014 µM
CC(C)(C)NC(=O)C1N(C(=O)[C@@H](O)[C@H](Cc2ccccc2)NC(=O)[C@H](CS(C)(=O)=O)NC(=O)COc2cccc3ccccc23)CSC1(C)C | PBMC(PHA) + PBMC |  | clinical isolate | ERS104 | p24 | EC50 | 0.02 µM
CC1=CCC[C@H]2[C@](C)(Cc3cc(O)ccc3O)[C@@H](C)CC[C@]12C | C8166 |  |  | IIIB | syncytia | EC90 | 2.9 µM
Cc1cn([C@H]2C[C@H](N=[N+]=[N-])[C@@H](CO)O2)c(=O)[nH]c1=O | MT-4 |  |  | IIIB | cytopathic effect / MTT | EC50 | 0.024 µg/mL
Nc1ncnc2c1ncn2[C@@H]1CC(CO)(CO)CS1 | MT-4 |  |  |  | cytopathic effect | EC50 | >100 µg/mL
CCCCCCCC/C=C\CCCCCCCC(=O)O[C@@H]1Cc2ccccc2[C@@H]1NC(=O)[C@H](Cc1ccccc1)C[C@H](O)CN1CCN(Cc2cccnc2)C[C@H]1C(=O)NC(C)(C)C | MT-4 |  |  | IIIB | cytopathic effect / MTT | EC50 | 0.25 µM
N#Cc1ccc(Nc2nc(Oc3c(Cl)cc(Cl)cc3Cl)ncc2[N+](=O)[O-])cc1 | MT-4 |  |  | RES056 | MTT | EC50 | >25.2 µM
CC(C)CN(C[C@@H](O)[C@H](Cc1ccccc1)NC(=O)O[C@H]1CO[C@H]2OCC[C@H]21)S(=O)(=O)c1ccc(N)c(NCc2cncs2)c1 | MT-4 |  |  | IIIB WT | GFP | EC50 | 0.0646 µM
Cc1cn([C@H]2C[C@H](N=[N+]=[N-])[C@@H](CO)O2)c(=O)[nH]c1=O | CEM + CEM TK- |  |  |  | cytopathic effect | EC50 | >100 µM
C[C@H](Cn1cnc2c(N)ncnc21)OCP(=O)(O)O | MT-4 |  |  | NL4-3 | cytopathic effect / XTT / absorbance | EC50 | 4.89 µM
Cc1cn([C@H]2C[C@H](N=[N+]=[N-])[C@@H](CO)O2)c(=O)[nH]c1=O | CEM |  |  | NL4-3 | RT activity | EC90 | 0.045 µM
Nc1nc2c(ncn2[C@H]2CO[C@@H](CO)O2)c(=O)[nH]1 | MT-2 | RT-D67N K70R T215Y K219Q L74V |  | LAI | p24 | EC50 | 1.04 µM
CC1=CCCC2C1(C)CCC(C)[C@@]2(C)CC1=CC(=O)C(NC(CO)C(=O)O)=CC1=O | C8166 |  |  | IIIB | syncytia | EC90 | >23.5 µM
CCc1cc(NCc2nc3c(Cl)ccc(Cl)c3o2)c(=O)[nH]c1C | CEM | RT-Y181C |  | IIIB | syncytia | EC50 | 10 µM
C[C@H](Cn1cnc2c(N)ncnc21)OCP(=O)(O)O | MT-2 |  |  | HXB2D | XTT | EC50 | 7 µM
CC1(C)S[C@H]([C@H](NC(=O)Cc2ccccc2)C(=O)NCc2ccccc2)N[C@H]1C(=O)N[C@H](Cc1ccccc1)[C@H](O)CC(=O)NCc1ccccc1 | MT-4 |  |  | RF | p24 | EC50 | 3 µM
CC(C)=CCN1Cc2cc(Cl)cc3[nH]c(=S)n(c23)C[C@@H]1C | MT-4 | RT-M41L T215Y Y181C |  |  |  | EC50 | <3 µM
COc1cc2c(c(OC)c1OC)-c1ccc(OC)c(=O)cc1[C@@H](NC(C)=O)CC2 | H9 |  |  | IIIB | p24 | EC50 | 0.01 µM
Cc1cn([C@H]2C[C@H](N=[N+]=[N-])[C@@H](CO)O2)c(=O)[nH]c1=O | MT-4 |  |  | IIIB | cytopathic effect / MTT | EC50 | 0.02 µM
Cn1cc(N)cc1C(=O)Nc1cc(C(=O)Nc2ccc3cc(S(=O)(=O)O)cc(S(=O)(=O)O)c3c2)n(C)c1 | CEM + CEM-SS |  |  | G762-3 | cytopathic effect / XTT | EC50 | 5.4 µM
CC1=CCCC2C1(C)CCC(C)[C@@]2(C)CC1=CC(=O)C(NC(CC(C)C)C(=O)O)=CC1=O | C8166 |  |  | IIIB | syncytia | EC90 | 1.1 µM
CC1=CCC[C@H]2[C@](C)(Cc3cc(O)ccc3O)[C@@H](C)CC[C@]12C | H9 |  |  | IIIB | RT activity | EC50 | 0.21 µM
Cc1cn([C@H]2C[C@H](N=[N+]=[N-])[C@@H](CO)O2)c(=O)[nH]c1=O | Macrophage + Monocytes/macrophages |  |  | Primary clinical isolate Rome | p24 | EC50 | <3.7 µM
CC(C)OC(=O)OCOP(=O)(CO[C@H](C)Cn1cnc2c(N)ncnc21)OCOC(=O)OC(C)C | MT-4 | K65R |  | NL4-3 | cytopathic effect / XTT / absorbance | EC50 | 0.1 µM
Nc1nc(=O)n([C@@H]2CO[C@H](CO)S2)cc1F | MT-4 |  |  | HXB2D | RT activity | EC50 | 2.2 µM
CCCCCCCCCCCCCCCC(=O)OCC(COC(=O)CCCCCCCCCCCCCCC)OC(=O)CCC(=O)O[C@H](CN1C[C@H]2CCCC[C@H]2C[C@H]1C(=O)NC(C)(C)C)[C@H](Cc1ccccc1)NC(=O)[C@H](CC(N)=O)NC(=O)c1ccc2ccccc2n1 | CEM |  |  | LAI | RT activity | EC50 | 0.11 µM
CC(C)[C@H](NC(=O)c1ccc2ccccc2n1)C(=O)N[C@@H](Cc1ccccc1)[C@H](O)CN1CC[C@@H](OCc2ccncc2)C[C@H]1C(=O)NC(C)(C)C | PBMC |  |  | VR949 | p24 | EC50 | 0.011 µM
C[C@]1(CO)O[C@@H](n2ccc(N)nc2=O)C[C@@H]1O | HeLa | RT-L74V |  |  | β-galactosidase | EC50 | 0.0052 µM
Cn1cc(C(=O)O)c(=O)c2cc(F)c(N3CC=C(c4ccccc4)CC3)c(C(F)(F)F)c21 | MOLT-4/U0(HIV-1(IIIB)) + MOLT-4 |  |  | IIIB | p24 | EC50 | 0.05 µM
CC(C)(C)NC(=O)[C@@H]1C[C@@H]2CCCC[C@@H]2CN1C[C@@H](OC(=O)COc1ccc(C[C@H](N)C(=O)O)cc1)[C@H](Cc1ccccc1)NC(=O)[C@H](CC(N)=O)NC(=O)c1ccc2ccccc2n1 | MT-4 |  |  | IIIB | cytopathic effect / MTT | EC50 | 0.085 µM
COc1cc(C(=O)N[C@H]2CCc3cc(OC)c(OC)c(OC)c3-c3ccc(OC)c(=O)cc32)cc(OC)c1OC | H9 |  |  | IIIB | p24 | EC50 | 0.02 µM
CC(C)(C)NC(=O)[C@@H]1C[C@@H]2CCCC[C@@H]2CN1C[C@@H](OC(=O)CCCCOc1ccc(C[C@H](N)C(=O)O)cc1)[C@H](Cc1ccccc1)NC(=O)[C@H](CC(N)=O)NC(=O)c1ccc2ccccc2n1 | MT-4 |  |  | IIIB | cytopathic effect / MTT | EC50 | 0.16 µM
C[C@H]1O[C@H](Oc2c(-c3ccc(O)c(O)c3)oc3cc(O)cc(O)c3c2=O)[C@@H](O)[C@@H](O)[C@@H]1O | MT-4 |  |  | NL4-3 | p24 / ELISA | EC50 | >20 µg/mL
CCNC1=CC(=O)C=C(C[C@]2(C)C(C)CCC3(C)C(C)=CCCC32)C1=O | C8166 |  |  | IIIB | syncytia | EC90 | >2.5 µM

Repeating the first 7 entries:

smiles	cell line	mutations	conditions	strain	read by	read-out	result
CCCCCCCC/C=C\CCCCCCCC(=O)OCC(COC(=O)CCCCCCC/C=C\CCCCCCCC)OC(=O)CCC(=O)O[C@H](CN1C[C@H]2CCCC[C@H]2C[C@H]1C(=O)NC(C)(C)C)[C@H](Cc1ccccc1)NC(=O)[C@H](CC(N)=O)NC(=O)c1ccc2ccccc2n1	MT-4			IIIB	cytopathic effect / MTT	EC50	1.7 µM
CC(C)(C)NC(=O)[C@@H]1CN(S(C)(=O)=O)CCN1C[C@@H](O)C[C@@H](Cc1ccccc1)C(=O)N[C@H]1c2ccccc2C[C@H]1O	MT-4			IIIB	p24	EC50	<0.4 µM
Cc1cn([C@H]2C[C@H](N=[N+]=[N-])[C@@H](CO)O2)c(=O)[nH]c1=O	CEM + CEM-SS			A17	cytopathic effect / XTT	EC50	0.14 µM
COc1cc2c(c(OC)c1O)-c1ccc(SC)c(=O)cc1[C@@H](N)CC2	H9			IIIB	p24	EC50	1.1 µM
CC(C)Nc1cccnc1N1CCN(C(=O)c2cc3ccccc3[nH]2)CC1	CEM			IIIB	syncytia	EC50	0.08 µM
CC(C)(C)NC(=O)[C@@H]1CCCN1C(=O)[C@@H](O)[C@H](Cc1ccccc1)NC(=O)[C@H](CC(N)=O)NC(=O)c1ccc2ccccc2n1	ATH8			LAI	trypan blue	EC50	1 µM
Cc1nc2ccccc2c(-c2ccc3c4c(ccnc24)[C@H]2C[C@@H]32)c1[C@H](OC(C)(C)C)C(=O)O	MT-4			IIIB	ATP	EC50	0.037 µM